Activation data for 57 compounds are collected here from PubChem BioAssay AID624414 (National Center for Advancing Translational Sciences (NCATS), 2012).

The chains behind the UniProt entries cited, without tags or fusion partners.
UniProt Q9GZU1, whole entry: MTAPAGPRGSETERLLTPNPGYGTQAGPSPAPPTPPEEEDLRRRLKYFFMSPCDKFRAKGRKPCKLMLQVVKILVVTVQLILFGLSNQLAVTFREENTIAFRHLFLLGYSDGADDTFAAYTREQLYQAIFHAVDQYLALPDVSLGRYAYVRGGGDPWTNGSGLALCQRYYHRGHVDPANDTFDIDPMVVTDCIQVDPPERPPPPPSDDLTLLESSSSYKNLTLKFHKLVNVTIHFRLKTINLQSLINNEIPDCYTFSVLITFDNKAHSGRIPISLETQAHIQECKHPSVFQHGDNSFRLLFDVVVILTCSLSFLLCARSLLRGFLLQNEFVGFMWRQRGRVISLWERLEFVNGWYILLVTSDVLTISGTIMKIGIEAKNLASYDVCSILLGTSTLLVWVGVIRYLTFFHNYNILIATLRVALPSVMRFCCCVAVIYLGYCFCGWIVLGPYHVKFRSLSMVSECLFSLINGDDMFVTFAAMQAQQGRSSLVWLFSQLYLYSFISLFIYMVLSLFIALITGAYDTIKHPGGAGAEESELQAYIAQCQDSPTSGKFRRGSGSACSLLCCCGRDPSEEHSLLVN

Only a part is listed here, and it is no random draw. Calls of active or inactive are those of the source. No stated cut-off is given here; in the data, active means activation above about 50%; inconclusive means mostly about 30% to 49%; inactive means weaker than that.

The test addresses Mucolipin-1 (Homo sapiens) (UniProt Q9GZU1). Description: qHTS for Agonists of the Human Mucolipin Transient Receptor Potential 1 (TRPML1). Further: 0% is about no effect. Particulars: TRPML1-expressing cells, Ca2+ dye fluorescence, FDSS; stronger effect = higher value. An outline of the steps: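 In this qHTS format, compounds were pin-transferred onto Ca8-dye-loaded TRPML1-DL cells induced with Tet overnight, and intracellular Ca2+ fluorescence was recorded kinetically for 110 s after a 10 s baseline. A subsequent 4uM final 54-4 (EC80) addition followed by a second 110 s read served as the antagonist phase.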
(In general: Quantitative high-throughput screening tests each substance at several concentrations.)
On to `CC(C)(C)C(=O)NC(Sc1ncccn1)C(Cl)(Cl)Cl` (configuration not stated), for which the activation is inactive: -0.767%.

Regarding `O=P1(Nc2ccccn2)COc2ccccc2OC1`, the activation was inactive: 0.389%. As for `CCC1=CC2Cc3nc4ccc(Cl)cc4c(N)c3C(C1)C2` (configuration not stated), the activation is inactive: 2.2%.

Take `O=C(O)C(O)c1ccc(N(CCCl)CCCl)cc1.c1ccncc1` (configuration not stated): the activation is inactive: 0.106%. Regarding `O=[N+]([O-])c1cc([N+](=O)[O-])c(-n2nnc3ccccc32)c([N+](=O)[O-])c1`, the activation is inactive: -0.565%.

Take `CCOP(=O)(NC(=NC(C)c1ccccc1)NC(C)c1ccccc1)OCC` (configuration not stated): the activation was inactive: 2.99%. For `Nc1ccc(CCCCOc2ccccc2)cc1.O=[N+]([O-])c1cc([N+](=O)[O-])c(O)c([N+](=O)[O-])c1` the value was inactive: -0.733%; for `CCOP(=O)(Nc1ccc(C)cn1)OCC`, inactive: -0.506%; for `CN(CCCl)Cc1cc(Cl)c(NC2=NCCN2)c(Cl)c1`, inactive: 0.695%.

As to `Cc1ccc(S(=O)(=O)N(CCCN)CCCc2c(C)nc(N)[nH]c2=O)cc1.O=[N+]([O-])c1cc([N+](=O)[O-])c(O)c([N+](=O)[O-])c1`, the activation was inactive: -0.916%. With `CC(C)/C=N\N=C(\N)N[N+](=O)[O-]`, the activation was inactive: -0.962%. To `CN(C(=O)Cc1ccc(Cl)c(Cl)c1)[C@@H]1CCCC[C@H]1N1CCCC1` belongs inactive: -0.174%; to `CC1(CBr)Cn2c(nc3ccccc3c2=O)S1` (configuration not stated), inactive: -0.249%. To `Cc1nc2ccc3ccccc3c2s1.O=[N+]([O-])c1cc([N+](=O)[O-])c(O)c([N+](=O)[O-])c1` belongs inactive: 0.417%; to `O=[N+]([O-])c1cc([N+](=O)[O-])c(-c2cnn(-c3ccccc3)c2)c([N+](=O)[O-])c1`, inactive: 0.843%; to `COc1ccccc1CNC(=O)COC(=O)C(O)(c1ccccc1)c1ccccc1`, inactive: 0.656%. To `Cc1cccc(OCC(=O)OC2CN3CCC2CC3)c1` (configuration not stated) belongs inactive: 1.1%; to `O=[As](O)(c1cccc(O)c1)c1cccc(O)c1`, inactive: 0.553%; to `Cc1cc(C)cc(OP(C)(=O)Nc2ccc(C)cc2C)c1` (configuration not stated), inactive: 1.03%.

As to `CCOC(=O)c1ccc(NP(C)(=O)Oc2cc(C)cc(C)c2)cc1` (configuration not stated), the activation was inactive: -0.346%.

As to `O=C(OC1CN2CCC1CC2)c1ccc(Cl)cc1` (configuration not stated), the activation was inactive: -0.0405%.

Turning to `COc1cc(C(=O)NCC2(N3CCOCC3)CCCCC2)cc(Cl)c1OC(C)C`, the activation was inactive: 1.71%. For `CS(=O)(=O)c1ccc(Cl)c(NC(=O)COC(=O)C(O)(c2ccccc2)c2ccccc2)c1` the value was inactive: 0.46%; for `CCOP(=O)(Nc1cccc2ccccc12)OCC`, inactive: -0.0567%; for `Cc1cc(C)cc(OP(C)(=O)Nc2ccccn2)c1` (configuration not stated), inactive: 0.0659%. To `CP(=O)(Nc1cccc(Br)c1)Oc1ccccc1` (configuration not stated) belongs inactive: -0.0726%; to `Cc1ccc(NCCc2c([N+](=O)[O-])cc([N+](=O)[O-])cc2[N+](=O)[O-])cc1`, inactive: -0.716%.

In the case of `Nc1cccc2c([As](=O)(O)O)cccc12`, the activation is inactive: 0.393%. For the compound `Cc1ccc(C)c(NP(C)(=O)Oc2ccccc2)c1` (configuration not stated), the activation was inactive: -1.19%. For `CCCOP(=S)(Nc1nc(N)cc(=O)[nH]1)OCCC` the value was inactive: 3.65%; for `Nc1ccccc1[As](=O)(O)c1ccccc1`, inactive: -0.382%.

As to `O=C(O)COc1ccc([As](=O)(O)O)cc1[N+](=O)[O-]`, the activation is inactive: 0.0844%. To `CCOP1(=S)c2c(C)nn(CCC#N)c2N=C(c2ccccc2F)N1C` (configuration not stated) belongs inactive: 0.177%; to `O=P(Nc1nccs1)(Oc1ccccc1)Oc1ccccc1`, inactive: 0.479%. To `O=P(Nc1nccs1)(c1ccccc1)c1nc2ccccc2s1` (configuration not stated) belongs inactive: 0.138%. For `CS(=O)(=O)c1cc([N+](=O)[O-])c2no[n+]([O-])c2c1`, the activation is inactive: 5.83%. For `N#CCCN(C(=O)COC(=O)C(O)(c1ccccc1)c1ccccc1)c1ccc(F)cc1`, the activation was inactive: 3.1%. Turning to `CN(C(=O)Cc1ccccc1)[C@@H]1CC[C@]2(CCCO2)C[C@H]1N1CCCC1`, the activation was inactive: -0.348%.

For the compound `CCOP1(=S)c2c(C)nn(CCC#N)c2N=C(c2ccc(F)cc2)N1C` (configuration not stated), the activation was inactive: 0.763%. For `O=[N+]([O-])c1ccc2c(c1)nnn2O` the value was inactive: 0.953%; for `CN(C)C(=O)c1cc([N+](=O)[O-])cc2c1-c1c(cc([N+](=O)[O-])cc1[N+](=O)[O-])C2=O`, inactive: 0.145%; for `CC1=NCCc2c1[nH]c1ccccc21.O=[N+]([O-])c1cc([N+](=O)[O-])c(O)c([N+](=O)[O-])c1`, inactive: -0.631%.

`CN(C(=O)Cc1ccc(Cl)c(Cl)c1)[C@H]1CC[C@@]2(CCCO2)C[C@@H]1N1CCCC1`: the activation is inactive: 0.626%. To `NC(=O)Nc1ccc([As](=O)(O)O)cc1` belongs inactive: -0.299%.

As for `[N-]=[N+]=NC1CCCCC1NC(=O)c1cc([N+](=O)[O-])cc([N+](=O)[O-])c1` (configuration not stated), the activation was inactive: -0.532%. To `Cc1ccc(OP(=O)(Nc2ccc([N+](=O)[O-])cn2)Oc2ccc(C)cc2)cc1` belongs inactive: 2.53%; to `CC(C)(C)c1ccc(OP(C)(=O)Nc2ccc(SC(F)(F)F)cc2)cc1` (configuration not stated), inactive: 15.7%; to `ClCCN(CCCl)c1ccc(CC2C=CC=C2)cc1`, inactive: 0.38%. To `Cc1cccc(C)c1OP(C)(N)=O` (configuration not stated) belongs inactive: 1%; to `O=[N+]([O-])c1ccc2c(c1)C=Nc1ccccc1O2`, inactive: 0.0548%; to `Cc1ccc2nc3c(c(C)c2c1)CC(C(Cl)Cl)S3` (configuration not stated), inactive: -0.0397%. With `O=[N+]([O-])c1cc([N+](=O)[O-])c(Nc2cccnc2)c([N+](=O)[O-])c1`, the activation was inactive: 3.1%. To `C[As](=O)(O)c1cccc(C(=O)O)c1` belongs inactive: 0.349%; to `O=[As](O)(c1ccc(O)cc1)c1ccccc1O`, inactive: -0.305%. As for `O=[N+]([O-])c1ccc(-c2cc([N+](=O)[O-])c(O)c([N+](=O)[O-])c2)cc1`, the activation is inactive: -0.293%. For the compound `COc1cc(C(=O)NCC2(N3CCOCC3)CCCCC2)ccc1OCC(C)C`, the activation was inactive: 0.18%. Consider `COc1ccccc1OP(C)(=O)Nc1cc(Cl)ccc1C` (configuration not stated), for which the activation is inactive: 0.932%.
